Only a part is listed here, and it is no random draw. The source made the active and inactive calls. Rule as the data show it: active = inhibition above about 33%; inactive = the rest.
These compounds were tested against Lytic switch protein BZLF1 (Epstein-Barr virus (strain B95-8)) (UniProt P03206) (assay: Zta-DNA interaction blockers, Epstein-Barr virus – biochemical, fluorescence polarization, single concentration, counter-screen for EBNA-1 inhibitor project, primary screen (AID 2234)). Conditions: ZTA-DNA binding, at 11 µM, active compounds read high.

The chains behind the UniProt entries cited, without tags or fusion partners.
UniProt P03206, whole entry: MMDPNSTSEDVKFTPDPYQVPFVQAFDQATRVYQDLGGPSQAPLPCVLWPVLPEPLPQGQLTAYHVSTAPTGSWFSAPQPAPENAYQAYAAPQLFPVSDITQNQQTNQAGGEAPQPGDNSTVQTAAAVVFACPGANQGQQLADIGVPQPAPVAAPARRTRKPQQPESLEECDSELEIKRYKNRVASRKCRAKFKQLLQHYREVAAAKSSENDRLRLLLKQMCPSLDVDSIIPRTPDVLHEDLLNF

SMILES	inhibition
O=[As](O)(c1ccccc1Br)c1ccccc1Br	inactive: -16.1%

— PubChem BioAssay AID2234 (The Scripps Research Institute Molecular Screening Center, 2010)
